Measured data: PubChem BioAssay AID1259414 (Drosophila RNAi Screening Center, 2018)
The screen tested about 24,000 reagents; this is a random part of those with a known target gene and a result. Over the whole deposit, about 1,210 (5%) got an active call. 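Inactive calls also include excluded dsRNAs with several or no targets, genes unexpressed in JW18, and well A1, regardless of score.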 Unmarked entries are inactive. A plus sign joins genes that one reagent is predicted to hit. No sequences are given here.

Test: 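Fly genes that alter Wolbachia amount inside host cells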 (primary screen)
Cells: Drosophila JW18 cells infected with Wolbachia
Reagents: long dsRNA against Drosophila genes, 0.25 µg dsRNA per well of a 384-well plate
Timing: 5 days
Challenge: cells persistently infected with Wolbachia before knock-down; no added drug
Measured: 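Automated imaging of bacterial rRNA staining divided by host cell count, reported as plate-normalised robust z-score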
Scale: Wolbachia per cell robust z: higher = more Wolbachia per host cell than the plate typical
Call rule: 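Hit when robust z is 1.5 or more, or -1.5 or less, in at least two of three replicates; excludes dsRNAs with several or no targets, genes not expressed in JW18 and well A1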

CG14892 [DRSC15014] | Wolbachia per cell robust z, rep 1 = 0.38; Wolbachia per cell robust z, rep 2 = 0.296; Wolbachia per cell robust z, rep 3 = 1.06
CG1236 [DRSC12203] | Wolbachia per cell robust z, rep 1 = -0.85; Wolbachia per cell robust z, rep 2 = 0.791; Wolbachia per cell robust z, rep 3 = -0.222
ato [DRSC16904] | Wolbachia per cell robust z, rep 1 = -0.14; Wolbachia per cell robust z, rep 2 = -1.06; Wolbachia per cell robust z, rep 3 = -1.64
pad [DRSC14227] | Wolbachia per cell robust z, rep 1 = -3.44 (active); Wolbachia per cell robust z, rep 2 = -7.31; Wolbachia per cell robust z, rep 3 = -0.681
pad [DRSC26048] | Wolbachia per cell robust z, rep 1 = 1.27; Wolbachia per cell robust z, rep 2 = 1.3; Wolbachia per cell robust z, rep 3 = -0.912
pad [DRSC41384] | Wolbachia per cell robust z, rep 1 = -2.75; Wolbachia per cell robust z, rep 2 = -0.93; Wolbachia per cell robust z, rep 3 = -0.443
CR32009 + PlexB + CR32010 + 1 more [DRSC26099] | Wolbachia per cell robust z, rep 1 = -0.364; Wolbachia per cell robust z, rep 2 = 0.748; Wolbachia per cell robust z, rep 3 = -0.311
Nplp4 [DRSC00391] | Wolbachia per cell robust z, rep 1 = 0.0906; Wolbachia per cell robust z, rep 2 = -0.0824; Wolbachia per cell robust z, rep 3 = -0.462
CG43271 [DRSC21741] | Wolbachia per cell robust z, rep 1 = 0.429; Wolbachia per cell robust z, rep 2 = -1.97; Wolbachia per cell robust z, rep 3 = -0.26
Hydr1 [DRSC07063] | Wolbachia per cell robust z, rep 1 = 0.846; Wolbachia per cell robust z, rep 2 = 0.724; Wolbachia per cell robust z, rep 3 = -0.386
CG1943 [DRSC12576] | Wolbachia per cell robust z, rep 1 = 0.122; Wolbachia per cell robust z, rep 2 = 0.733; Wolbachia per cell robust z, rep 3 = -3.05
CG8034 [DRSC20076] | Wolbachia per cell robust z, rep 1 = 0.707; Wolbachia per cell robust z, rep 2 = 0.174; Wolbachia per cell robust z, rep 3 = 1.06
CG8034 [DRSC29895] | Wolbachia per cell robust z, rep 1 = 0.532; Wolbachia per cell robust z, rep 2 = 0.376; Wolbachia per cell robust z, rep 3 = 0.277
Mp [DRSC10193] | Wolbachia per cell robust z, rep 1 = -1.91; Wolbachia per cell robust z, rep 2 = -3.27; Wolbachia per cell robust z, rep 3 = 1.16
Mp [DRSC11029] | Wolbachia per cell robust z, rep 1 = -0.206; Wolbachia per cell robust z, rep 2 = -3.15; Wolbachia per cell robust z, rep 3 = -3.98
Mp [DRSC11030] | Wolbachia per cell robust z, rep 1 = -4.83; Wolbachia per cell robust z, rep 2 = -0.432; Wolbachia per cell robust z, rep 3 = 1.02
CG12661 [DRSC17864] | Wolbachia per cell robust z, rep 1 = -1.68; Wolbachia per cell robust z, rep 2 = -2.91; Wolbachia per cell robust z, rep 3 = -1.49
CG12661 [DRSC29244] | Wolbachia per cell robust z, rep 1 = -2.37; Wolbachia per cell robust z, rep 2 = -0.697; Wolbachia per cell robust z, rep 3 = 0.239
CG4116 [DRSC18348] | Wolbachia per cell robust z, rep 1 = -0.553; Wolbachia per cell robust z, rep 2 = 0.777; Wolbachia per cell robust z, rep 3 = -0.855
CG4116 [DRSC29381] | Wolbachia per cell robust z, rep 1 = 0.124; Wolbachia per cell robust z, rep 2 = -0.569; Wolbachia per cell robust z, rep 3 = 0.119
CG42524 [DRSC41348] | Wolbachia per cell robust z, rep 1 = -0.751; Wolbachia per cell robust z, rep 2 = -0.0218; Wolbachia per cell robust z, rep 3 = -1.76
SkpA [DRSC18833] | Wolbachia per cell robust z, rep 1 = 1.72 (active); Wolbachia per cell robust z, rep 2 = 3.5; Wolbachia per cell robust z, rep 3 = 1.67
SkpA [DRSC25163] | Wolbachia per cell robust z, rep 1 = 0.668 (active); Wolbachia per cell robust z, rep 2 = 3.7; Wolbachia per cell robust z, rep 3 = 4.11
CG9399 [DRSC16488] | Wolbachia per cell robust z, rep 1 = 0.205; Wolbachia per cell robust z, rep 2 = -0.16; Wolbachia per cell robust z, rep 3 = 0.128
inaF-B [DRSC18903] | Wolbachia per cell robust z, rep 1 = -0.676; Wolbachia per cell robust z, rep 2 = -0.7; Wolbachia per cell robust z, rep 3 = -0.899
CG40486 [DRSC20619] | Wolbachia per cell robust z, rep 1 = -0.547; Wolbachia per cell robust z, rep 2 = 1.52; Wolbachia per cell robust z, rep 3 = -1.84
CG8001 [DRSC08611] | Wolbachia per cell robust z, rep 1 = -0.449 (active); Wolbachia per cell robust z, rep 2 = -2.52; Wolbachia per cell robust z, rep 3 = -2.76
Dup99B [DRSC22877] | Wolbachia per cell robust z, rep 1 = 0.414; Wolbachia per cell robust z, rep 2 = -3.9; Wolbachia per cell robust z, rep 3 = -4.39
Dup99B [DRSC29633] | Wolbachia per cell robust z, rep 1 = 0.376; Wolbachia per cell robust z, rep 2 = 0.0419; Wolbachia per cell robust z, rep 3 = -0.219
shv [DRSC00640] | Wolbachia per cell robust z, rep 1 = -0.545; Wolbachia per cell robust z, rep 2 = -0.676; Wolbachia per cell robust z, rep 3 = 2.89
shv [DRSC22122] | Wolbachia per cell robust z, rep 1 = 0.17; Wolbachia per cell robust z, rep 2 = 0.905; Wolbachia per cell robust z, rep 3 = 1.4
shv [DRSC26482] | Wolbachia per cell robust z, rep 1 = 0.32; Wolbachia per cell robust z, rep 2 = 0.411; Wolbachia per cell robust z, rep 3 = -0.311
shv [DRSC26483] | Wolbachia per cell robust z, rep 1 = -0.297; Wolbachia per cell robust z, rep 2 = -0.618; Wolbachia per cell robust z, rep 3 = -0.0828

As entered above:
Value of CG40486 [DRSC20619] under “Wolbachia per cell robust z, rep 3”: -1.84
For “Wolbachia per cell robust z, rep 2”, shv [DRSC22122] shows 0.905
pad [DRSC14227], Wolbachia per cell robust z, rep 3 = -0.681 (active)
